Experimental data as given in patent US8581605B2 (priority 2006, dated 2013).

Amino acid sequences for entries named in this document (tags omitted). A change or cut given only in a name is not applied to a line headed by its entry.
UniProt P09616: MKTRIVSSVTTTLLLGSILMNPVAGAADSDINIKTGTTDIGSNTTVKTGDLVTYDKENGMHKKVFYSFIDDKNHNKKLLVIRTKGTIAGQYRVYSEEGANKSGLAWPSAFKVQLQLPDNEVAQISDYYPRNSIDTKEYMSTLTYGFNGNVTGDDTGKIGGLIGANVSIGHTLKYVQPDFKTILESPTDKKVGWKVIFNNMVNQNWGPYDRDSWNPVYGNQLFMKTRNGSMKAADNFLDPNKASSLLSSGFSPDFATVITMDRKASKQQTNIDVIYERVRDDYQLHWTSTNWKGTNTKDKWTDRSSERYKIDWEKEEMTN

Tests used:
alpha-HL channel = alpha-HL channel (Staphylococcus aureus, UniProt P09616); assay: Electrostatic trapping of s7-βCD in the alpha-HL channel as a function of transmembrane voltage
αHL channels = αHL channels (Staphylococcus aureus, UniProt P09616); assay: AC (phase-sensitive) recording of s7βCD detection by αHL channels in a spanning lipid bilayer on a GNP membrane; conditions: −30 mV DC bias, 2 αHL channels

hepta-6-sulfato-β-cyclodextrin
dissociation from the protein (alpha-HL channel; voltages greater than −0.20 V, until voltage is reduced): does not dissociate | duration of trapping (alpha-HL channel; voltages greater than −200V (so in the source)): extended periods of time (e.g., hours) | residence time within the lumen of the protein (alpha-HL channel; −0.04 V across the lipid bilayer membrane (trans relative to cis)): 1 s | binding events in alpha-HL channel (alpha-HL channel; −40 mV): reversible stochastic | electrostatic trapping in alpha-HL channel (alpha-HL channel; −120 and −200 mV, DPhPC bilayer, 50 μM s7-βCD): Stable trapping | decrease in conductance when s7 βCD binds to the channel (αHL channels): 70-80%
